Measured values from several laboratories, pooled; numbers as filed in NIAID ChemDB.

Common to all: growth or infection tests; organism: HIV-1; method: syncytia; endpoint: EC50

An empty or dashed field is not shown. Rows are shuffled and stem from different studies. ECn: concentration that inhibits the pathogen or its effect by n%.

SMILES	changes	strain	cells	result
CN1C(=O)N(Cc2ccccc2)S(=O)(=O)c2cscc21	RT-L100I		CEM	13 µM
CCN1C(=O)N(Cc2ccccc2)S(=O)(=O)c2cscc21		IIIB	CEM	1.5 µM
O=c1[nH]cnc2c1ncn2[C@H]1CC[C@@H](CO)O1	RT-E138K	IIIB	CEM	12 ± 11.3 µM
Nc1nc(N)c(Cl)c(OCCOCP(=O)(O)O)n1		IIIB	CEM	0.93 µg/mL
O=C(O)P(=O)(O)O	RT-E89G	LAI viral clone (RT-E89G)	HT4LACZ-1 + HT4 LacZ-1	504 µM
O=C(CCCCCCc1ncc2ccc(Cl)nn12)c1ccccc1		RF	C8166	0.21 µM
Cc1cn([C@@H]2O[C@H](COCc3ccccc3)C3(OS(=O)(=O)C=C3N)[C@H]2O[Si](C)(C)C(C)(C)C)c(=O)[nH]c1=O		IIIB	MT-4	>6 µM
Cc1nc(CCCCCCC(=O)c2ccccc2)n2nc(-n3cccc3)ccc12		RF	C8166	0.007 µM
O=C1Nc2cscc2S(=O)(=O)N1c1ccc(Cl)cc1		IIIB	CEM	>12.7 µM
Cn1cnc2ncn([C@@H]3O[C@H](CO[Si](C)(C)C(C)(C)C)C4(OS(=O)(=O)C=C4N)[C@H]3O[Si](C)(C)C(C)(C)C)c2c1=O		IIIB	CEM	0.05 µg/mL
Fc1ccc([C@@H]2CCNC[C@H]2COc2ccc3c(c2)OCCO3)cc1		IIIB	MOLT-3	>4 µg/mL
C1CNCCNCCCNCCNC1		IIIB	MOLT-4	423 µM
Cc1nc(CCCCCCC(=O)c2ccccc2)n2nc(-n3cncc3C)ccc12		RF	C8166	0.01 µM
Cc1cn([C@@H]2O[C@H](CO[Si](C)(C)C(C)(C)C)[C@@]3(OS(=O)(=O)C=C3N)[C@H]2O[Si](C)(C)C(C)(C)C)c(=O)[nH]c1=O	RT-L100I Y188H	IIIB TIBO R82913 STR-B22 (RT L100I Y188H)	CEM	4 µM
CC(C)Nc1cccnc1N1CCN(C(=O)c2cc3cc(NS(C)(=O)=O)ccc3[nH]2)CC1		IIIB	CEM	0.015 ± 0.007 µM
COc1ccc(OC[C@@H]2CNCC[C@H]2c2ccc(F)cc2)cc1		IIIB	MOLT-3	>4 µg/mL
CCn1c(=O)c(C)cn([C@@H]2O[C@H](CO[Si](C)(C)C(C)(C)C)C3(OS(=O)(=O)C=C3N)[C@H]2O[Si](C)(C)C(C)(C)C)c1=O		IIIB	CEM	0.061 ± 0.057 µg/mL
Cc1cn([C@@H]2O[C@H](CO[Si](C(C)(C)C)(C(C)(C)C)C(C)(C)C)C3(OS(=O)(=O)C=C3N)[C@H]2O[Si](C)(C)C(C)(C)C)c(=O)n(C)c1=O		IIIB	MT-4	>30 µM
CCOCn1c(Cc2ccccc2)c(C(C)C)c(=O)[nH]c1=O	RT-K103N	IIIB	CEM	0.38 µg/mL
C=C(C)OC(=O)N1c2cc(Cl)ccc2NC(=S)C1(C)C	RT-E138K	TSAO(RT-E138K)	CEM	0.025 µM
CC(C)Nc1cccnc1N1CCN(C(=O)c2cc3cc(NS(C)(=O)=O)ccc3[nH]2)CC1	RT-E138K	IIIB	CEM	0.016 µg/mL
CN1C(=O)N(Cc2ccccc2)S(=O)(=O)c2cscc21	RT-Y188H	IIIB	CEM	≥324 µM
CCCCCN1CC[C@H](c2ccc(F)cc2)[C@@H](COc2ccc3c(c2)OCCO3)C1		IIIB	MOLT-3	>4 µg/mL
Nc1nc2c(ncn2[C@H]2CC[C@@H](CO)O2)c(=O)[nH]1	RT-Y181C	IIIB nevirapine-resistant (RT Y181C)	CEM	3 µM
CC(C)=CCN1Cc2cc(Cl)cc3[nH]c(=S)n(c23)C[C@@H]1C	RT-V106A P225H	Quin-0.1 (RT V106A P225H)	CEM	11 µM
CC(=O)NC1=CS(=O)(=O)OC12[C@@H](COCc1ccccc1)O[C@@H](n1cc(C)c(=O)[nH]c1=O)[C@@H]2OC(C)=O		IIIB	MT-4	>160 µM
O=c1[nH]cnc2c1ncn2[C@H]1CC[C@@H](CO)O1		RF	C8166	2.3 µM
Nc1cc(OCCOCP(=O)(O)O)nc(N)n1	RT-K65R S68G T69I V75T Q151M	Clinical isolate DE434.4	CEM	7.5 µg/mL
CCN1C(=O)N(Cc2ccccc2)S(=O)(=O)c2cscc21	RT-K103N		CEM	>310.2 µM
Cc1cn([C@H]2C[C@H](N=[N+]=[N-])[C@@H](CO)O2)c(=O)[nH]c1=O	RT-K20R M41L D67N T69N K70R L210W T215Y	G890-1 Clinical isolate ZDV-resistant	HT4 + HeLa	3.6 µM
C1CNCCNCC(CCOCCOCCC2CNCCNCCCNCCNC2)CNCCNC1		RF	MOLT-4	105 µM
Cc1cn([C@@H]2O[C@H](CO[Si](C)(C)C(C)(C)C)C3(OS(=O)(=O)C=C3N)[C@H]2O[Si](C)(C)C(C)(C)C)c(=O)n(C)c1=O	RT-Y188L	IIIB	CEM	≥50 µg/mL
CC(C)=CCOc1cc(NC(=S)c2ccsc2C)ccc1Cl	RT-V106A	IIIB	CEM	0.025 µM
Cc1cn([C@@H]2O[C@H](COC(=O)C(C)(C)C)C3(OS(=O)(=O)C=C3N)[C@H]2O[Si](C)(C)C(C)(C)C)c(=O)[nH]c1=O		IIIB	CEM	>35 µM
Cc1cn([C@H]2C=C[C@@H](COC(=O)CCCC(=O)N3CCCN(C(=O)OC(C)(C)C)CCN(C(=O)OC(C)(C)C)CCCN(C(=O)OC(C)(C)C)CC3)O2)c(=O)[nH]c1=O			MT-4	10 µM
O=C1N(Cc2ccccc2)c2cscc2S(=O)(=O)N1Cc1ccccc1	RT-L100I		CEM	≥10.4 µM
Cc1occc1C(=S)Nc1ccc(Cl)c(C(=O)OC2CCCC2)c1	RT-V106A	IIIB	CEM	0.04 µg/mL
Cc1cn([C@@H]2O[C@H](CO[Si](C)(C)C(C)(C)C)C3(OS(=O)(=O)C=C3N)[C@H]2O[Si](C)(C)C(C)(C)C)c(=O)n(C)c1=O		IIIB	CEM	0.03 µg/mL
Fc1ccc([C@H]2CCNC[C@@H]2COc2ccc3c(c2)OCCO3)cc1		IIIB	MOLT-3	>4 µg/mL
Cc1cn([C@H]2C=C[C@@H](CO)O2)c(=O)[nH]c1=O			MT-4	1 µM
Cc1cn([C@@H]2O[C@H](CO)C3(OS(=O)(=O)C=C3N)[C@H]2O)c(=O)[nH]c1=O		IIIB	MOLT-4	>55 µM
CO[Si](OC[C@H]1O[C@@H](n2cc(C)c(=O)n(C)c2=O)[C@H](O[Si](C)(C)C(C)(C)C)C12OS(=O)(=O)C=C2N)(c1ccccc1)C(C)(C)C		IIIB	CEM	3.1 µM
CN1C(=O)N(Cc2ccccc2)c2cscc2S1(=O)=O		IIIB	CEM	>64.8 µM
O=c1[nH]cnc2c1ncn2[C@H]1CC[C@@H](CO)O1			MT-4	5 µM
O=C(O)COc1c2cc(c(OCC(=O)O)c1OCC(=O)O)C(c1ccc(F)cc1)c1cc(c(OCC(=O)O)c(OCC(=O)O)c1OCC(=O)O)C(c1ccc(F)cc1)c1cc(c(OCC(=O)O)c(OCC(=O)O)c1OCC(=O)O)C(c1ccc(F)cc1)c1cc(c(OCC(=O)O)c(OCC(=O)O)c1OCC(=O)O)C2c1ccc(F)cc1		IIIB	CEM	4 µg/mL
Cc1cn([C@@H]2O[C@H](CO[Si](C)(C)C(C)(C)C)C3(OS(=O)(=O)C=C3N)[C@H]2O[Si](C)(C)C(C)(C)C)c(=O)n(C)c1=O	RT-V106A	IIIB	CEM	1.15 ± 0.49 µM
Cc1cn([C@H]2C=C[C@@H](COC(=O)CCCCN3CCCN(C(=O)OC(C)(C)C)CCN(C(=O)OC(C)(C)C)CCCN(C(=O)OC(C)(C)C)CC3)O2)c(=O)[nH]c1=O			MT-4	10 µM
Cc1cn([C@@H]2O[C@H](CO[Si](C)(C)C(C)(C)C)C3(OS(=O)(=O)C=C3N)[C@H]2O[Si](C)(C)C(C)(C)C)c(=O)n(C)c1=O	RT-V106A	NEV(RT-V106A)	CEM	3.7 µM
CC(C)=CCOc1cc(NC(=S)c2ccoc2C)ccc1Cl	gp120 T90I T188N T236A N289K T297I S334N T341I N386D	HHA-500SN (GP120-T90I T188N T236A N289K T297I S334N T341I N386D)	CEM	0.003 µg/mL
CC(C)(C)[Si](C)(C)OC[C@H]1O[C@@H](n2ccc(=O)[nH]c2=O)[C@H](O[Si](C)(C)C(C)(C)C)C12OS(=O)(=O)C=C2N		IIIB	CEM	0.148 µM
Nc1ncc2ncn([C@H]3CC[C@@H](CO)O3)c2n1		ROD	C8166	100 µM
Cc1cn([C@@H]2O[C@H](CO[Si](C)(C)C(C)(C)C)C3(OS(=O)(=O)C=C3N)[C@H]2O[Si](C)(C)C(C)(C)C)c(=O)n(C)c1=O	RT-Y181C	IIIB nevirapine-resistant (RT Y181C)	CEM	>50 µM
COc1ccc(OC[C@H]2CNCC[C@@H]2c2ccc(F)cc2)cc1		IIIB	MOLT-3	>4 µg/mL
Cc1nc(CCCCCOC(=O)c2ccccc2)n2nc(Cl)ccc12		RF	C8166	1.6 µM
CC(C)(C)OC(=O)N1CCCN(C(=O)OC(C)(C)C)CCN(C(=O)OC(C)(C)C)CCCN(CCCCC(=O)OC[C@@H]2CC[C@H](n3cnc4c(=O)[nH]cnc43)O2)CC1			MT-4	10 µM
Nc1ccn([C@H]2CC[C@@H](CO)O2)c(=O)n1	RT-Y181C	IIIB nevirapine-resistant (RT Y181C)	CEM	0.02 µM
Cc1cn([C@@H]2O[C@H](CO[Si](c3ccccc3)(c3ccccc3)C(C)(C)C)C3(OS(=O)(=O)C=C3N)[C@H]2O[Si](c2ccccc2)(c2ccccc2)C(C)(C)C)c(=O)[nH]c1=O		IIIB	MT-4	>150 µM
Nc1ncnc2c1ncn2CCOCP(=O)(O)O		IIIB-TIBO(0.1)	CEM	18 µM
CN1CC[C@H](c2ccccc2)[C@@H](COc2ccc3c(c2)OCCO3)C1		IIIB	MOLT-3	>4 µg/mL
CCN1C(=O)N(Cc2cccc(Cl)c2)S(=O)(=O)c2cscc21		HE	MT-4	3.1 µM
CC(C)(C)[Si](C)(C)OC[C@H]1O[C@@H](n2cnc3[nH]c(=O)[nH]c(=O)c32)[C@H](O[Si](C)(C)C(C)(C)C)C12OS(=O)(=O)C=C2N		IIIB	CEM	0.08 µg/mL
Cc1cn([C@H]2C[C@H](N=[N+]=[N-])[C@@H](CO)O2)c(=O)[nH]c1=O	RT-L100I	IIIB-BHAP)(0.1)(RT-L100I	CEM	0.002 µM
O=C1N(Cc2ccccc2)c2cscc2S(=O)(=O)N1Cc1ccccc1	RT-Y181C	IIIB	CEM	≥10 µM
Cc1cn([C@@H]2O[C@H](COCc3ccccc3)C3(OS(=O)(=O)C=C3NC(=O)c3ccccc3)[C@H]2OC(=O)c2ccccc2)c(=O)[nH]c1=O		IIIB	CEM	≥40 µM
Cc1cn([C@@H]2O[C@H](CO[Si](C)(C)C(C)(C)C)[C@@]3(OS(=O)(=O)C=C3N)[C@H]2O[Si](C)(C)C(C)(C)C)c(=O)[nH]c1=O		IIIB	CEM	0.03 ± 0.005 µg/mL
Cc1cn([C@@H]2O[C@H](CO[Si](C)(C)C(C)(C)C)C3(OS(=O)(=O)C=C3N)[C@H]2O)c(=O)[nH]c1=O		IIIB	MOLT-4	>40 µM
CC(C)(C)[Si](C)(C)OC[C@H]1O[C@@H](n2cnc3nc[nH]c(=O)c32)[C@H](O[Si](C)(C)C(C)(C)C)C12OS(=O)(=O)C=C2N		IIIB	CEM	0.07 µg/mL
C#CCN1C(=O)N(Cc2ccccc2)S(=O)(=O)c2cscc21		IIIB	CEM	5.1 µM
Cc1c(N)nc(N)nc1OCCOCP(=O)(O)O	RT-S68G K70T V75I F77L K103N F116Y Q151M K219R	Clinical isolate L6.5	CEM	0.25 µg/mL
CCc1cc(NCc2nc3c(Cl)ccc(Cl)c3o2)c(=O)[nH]c1C	RT-V106A	Quin-0.02(RT-V106A)	CEM	0.14 µM
CCc1cc(NCc2nc3c(Cl)ccc(Cl)c3o2)c(=O)[nH]c1C		IIIB	CEM	0.007 ± 0.003 µg/mL
Cc1ccnc2c1NC(=O)c1cccnc1N2C1CC1	RT-Y181C	IIIB	CEM	864 µM
C[C@H](Cn1cnc2c(N)ncnc21)OCP(=O)(O)O	RT-K65R S68G T69I V75T Q151M	Clinical isolate DE434.4	CEM	80 µg/mL
Cc1ccnc2c1NC(=O)c1cccnc1N2C1CC1		IIIB	CEM	0.03 µM
Cc1ccnc2c1NC(=O)c1cccnc1N2C1CC1	RT-V179N	IIIB-Pyridinone(0.1)(RT-V179N	CEM	0.1 µg/mL
Cc1cn(-c2ccc3c(C)nc(CCCCCCC(=O)c4ccccc4)n3n2)cn1		RF	C8166	0.065 µM